A mixed list of measured activities; the numbers were collected in NIAID ChemDB.

Common to all: tests in culture; species: Candida albicans; read-out: zone

An empty or dashed field is not shown. Zone: diameter of growth inhibition. Neighbouring rows are from separate reports.

structure	strain	read by	tested at	value
CC(=O)Nc1nc(C)c(-c2n[nH]c(=S)n2N2C(=O)CSC2c2ccccc2O)s1	-	agar diffusion	100 µg/mL	10 mm
COc1cccc(-c2nnc(CN3CCC(n4nc5ccccc5n4)CC3)o2)c1	-	-	600 µg/mL	5.01 mm
Clc1ccccc1C(c1ccccc1)(c1ccccc1)n1ccnc1	-	agar	25 µg/mL	45 mm
O=C1CC(c2ccccc2)CC2=C1C(c1ccc(C3C4=C(CC(c5ccccc5)CC4=O)OC4=C3C(=O)CC(c3ccccc3)C4)cc1)C1=C(CC(c3ccccc3)CC1=O)O2	ATCC 10231	agar diffusion	40 µg/disc	8 mm
O=C(NN=Cc1ccc(Cl)cc1)c1snnc1C(F)(F)F	MTCC 227	agar diffusion / agar	150 µg/mL	0 mm
COc1ccc(C2c3ccc4ccccc4c3Oc3nc(-c4cc5ccccc5oc4=O)[nH]c(=O)c32)cc1OC	-	agar diffusion / agar	150 µg/mL	18 mm
Fc1cccc(-c2nnc(CN3CCC(n4nc5ccccc5n4)CC3)o2)c1F	-	-	900 µg/mL	9.86 mm
CC(=NNC(=O)c1snnc1C(F)(F)F)c1ccccc1	MTCC 227	agar diffusion / agar	150 µg/mL	0 mm
CC1(C)CCC2=C(C1=O)C(c1ccc(C3C4=C(CCC(C)(C)C4=O)OC4=C3C(=O)C(C)(C)CC4)cc1)C1=C(CCC(C)(C)C1=O)O2	ATCC 10231	agar diffusion	20 µg/disc	0 mm
O=c1[nH]c(-c2cc3ccccc3oc2=O)nc2c1C(c1cccc([N+](=O)[O-])c1)c1ccc3ccccc3c1O2	-	agar diffusion / agar	150 µg/mL	14 mm
CC(=O)Nc1nc(C)c(-c2n[nH]c(=S)n2N2C(=O)CSC2c2ccc(F)cc2)s1	-	agar diffusion	100 µg/mL	16 mm
Oc1cc2ccccc2cc1/C=N/NC(=S)N/N=C/c1cc2ccccc2cc1O	-	agar diffusion / agar	2 mg/mL	16 mm
O=c1[nH]c(-c2cc3ccccc3oc2=O)nc2c1C(c1ccc(O)cc1)c1ccc3ccccc3c1O2	-	agar diffusion / agar	100 µg/mL	12 mm
CC(=O)Nc1nc(C)c(-c2n[nH]c(=S)n2N2C(=O)CSC2c2ccc(O)cc2)s1	-	agar diffusion	100 µg/mL	23 mm
c1ccc(-c2nnc(CN3CCC(n4nc5ccccc5n4)CC3)o2)cc1	-	-	1200 µg/mL	24.21 mm
O=C1c2ccccc2C(=O)c2c1cc(O[C@@H]1O[C@H](CO[C@@H]3OC[C@@H](O)[C@H](O)[C@H]3O)[C@@H](O)[C@H](O)[C@H]1O)c(CO)c2O	-	agar diffusion	13.3 µg/disc	0 mm
CCN1C(=S)N(CN2CCN(Cc3ccccc3)CC2)NC1C12CC3CC(CC(C3)C1)C2	IFO 0583	agar diffusion / agar	200 µg/disc	<10 mm
COc1cc(C2SCC(=O)N2n2c(-c3sc(NC(C)=O)nc3C)n[nH]c2=S)cc(OC)c1OC	-	agar diffusion	100 µg/mL	15 mm
CC(C)=NNC(=O)c1snnc1C(F)(F)F	MTCC 227	agar diffusion / agar	150 µg/mL	0 mm
Cn1c(=O)c(-c2[nH][nH]c(=O)c2/C=N/c2ccccn2)c(O)c2ccccc21	ATCC 10231	agar diffusion	1 mg/mL	23 mm
O=C(NN=Cc1ccc(F)cc1)c1snnc1C(F)(F)F	MTCC 227	agar diffusion / agar	150 µg/mL	0 mm
COc1ccc(C2c3ccc4ccccc4c3Oc3nc(-c4cc5ccccc5oc4=O)[nH]c(=O)c32)cc1	-	agar diffusion / agar	100 µg/mL	12 mm
CCN1C(=S)N(CN2CCN(c3ccccn3)CC2)NC1C12CC3CC(CC(C3)C1)C2	IFO 0583	agar diffusion / agar	200 µg/disc	<10 mm
CC1(C)CCC2=C(C1=O)C(c1cccc(C3C4=C(CCC(C)(C)C4=O)OC4=C3C(=O)C(C)(C)CC4)c1)C1=C(CCC(C)(C)C1=O)O2	ATCC 10231	agar diffusion	140 µg/disc	9 mm
CN(C)c1ccc(C2c3ccc4ccccc4c3Oc3nc(-c4cc5ccccc5oc4=O)[nH]c(=O)c32)cc1	-	agar diffusion / agar	100 µg/mL	11 mm
CN1C(=O)/C(=c2/[nH][nH]c(=O)/c2=C\c2ccc3c(c2)OCO3)C(=O)c2ccccc21	ATCC 10231	agar diffusion	1 mg/mL	14 mm
Cc1c(O)cc2c(c1O)C(=O)c1ccccc1C2=O	-	agar diffusion	13.3 µg/disc	0 mm
CC1(C)CC(=O)C2=C(C1)OC1=C(C(=O)CC(C)(C)C1)C2c1ccc(C2C3=C(CC(C)(C)CC3=O)OC3=C2C(=O)CC(C)(C)C3)cc1	ATCC 10231	agar diffusion	40 µg/disc	9 mm
COc1ccc(/C=c2\c(=O)[nH][nH]\c2=C2/C(=O)c3ccccc3N(C)C2=O)cc1OC	ATCC 10231	agar diffusion	1 mg/mL	13 mm
CCOCc1c(O)cc2c(c1O)C(=O)c1ccccc1C2=O	-	agar diffusion	13.3 µg/disc	0 mm
C/C=C/N1C(=S)N(CN2CCN(C(=O)OCC)CC2)NC1C12CC3CC(CC(C3)C1)C2	IFO 0583	agar diffusion / agar	200 µg/disc	<10 mm
O=C1CC(c2ccccc2)CC2=C1C(c1cccc(C3C4=C(CC(c5ccccc5)CC4=O)OC4=C3C(=O)CC(c3ccccc3)C4)c1)C1=C(CC(c3ccccc3)CC1=O)O2	ATCC 10231	agar diffusion	20 µg/disc	7 mm
CCN1C(=S)N(CN2CCN(c3ccccc3OC)CC2)NC1C12CC3CC(CC(C3)C1)C2	IFO 0583	agar diffusion / agar	200 µg/disc	<10 mm
CN1C(=O)/C(=c2/[nH][nH]c(=O)/c2=C\c2ccc(Cl)cc2)C(=O)c2ccccc21	ATCC 10231	agar diffusion	1 mg/mL	8 mm
Cc1ccc(-c2nnc(CN3CCC(n4nc5ccccc5n4)CC3)o2)cc1Br	-	-	600 µg/mL	5.51 mm
Cc1ccc(N=Nc2c(-c3c(O)c4ccccc4n(C)c3=O)[nH][nH]c2=O)cc1	ATCC 10231	agar diffusion	1 mg/mL	14 mm
O=C(NN=C1CCCC1)c1snnc1C(F)(F)F	MTCC 227	agar diffusion / agar	150 µg/mL	0 mm